Results of unrelated studies side by side (data: NIAID ChemDB).

All rows: growth or infection tests; species: Mycobacterium tuberculosis

Blank or dashed fields: not listed here.

smiles	mutations	endpoint	strain or isolate	setting	dose	cells	read by	result
C/C(=N\NC(=O)c1ccncc1)c1ccccc1		MIC	H37Rv					0.1 µg/mL
O=c1[nH]c2c(Cl)cccc2c(O)c1N=Nc1cccc([N+](=O)[O-])c1		inhibition	H37Rv		6.25 µg/mL		resazurin	24%
CCCOc1cccc(NC(=O)OCCN2CCCCCC2)c1		MIC	My 331/88					125 µM
CO[C@H]1/C=C/O[C@@]2(C)Oc3c(C)c(O)c4c(O)c(c(/C=N/N5CCN(C)CC5)c(O)c4c3C2=O)NC(=O)/C(C)=C\C=C\[C@H](C)[C@H](O)[C@@H](C)[C@@H](O)[C@@H](C)[C@H](OC(C)=O)[C@@H]1C		Median MIC	H37Rv					0.075 µg/mL
NNC(=O)c1ccncc1		MIC	Strain 325					8 µg/mL
NN1CC(=O)NC1=O		MIC bound	H37Rv				BACTEC	>12.5 µg/mL
O=c1[nH]c2ccc(Cl)cc2c(O)c1N=Nc1ccc(F)cc1		inhibition	H37Rv		6.25 µg/mL		resazurin	71%
COC(=O)c1nnn(CC(=O)Nc2ccc(C)c(F)c2)c1C(=O)OC		MIC	Clinical isolate				resazurin	4 µg/mL
Cc1ccc(NCCN(C)C)c2c(=O)c3ccc(O)cc3sc12		MIC	H37Rv			VERO	BACTEC	12.5 µg/mL
CO[C@H]1/C=C/O[C@@]2(C)Oc3c(C)c(O)c4c(=O)c(c5oc6cc(N7CCN(C(C)C)CC7)cc(=O)c6nc5c4c3=C2O)NC(=O)/C(C)=C\C=C\[C@H](C)[C@H](O)[C@@H](C)[C@@H](O)[C@@H](C)[C@H](OC(C)=O)[C@@H]1C		MBC	2227 (rifampin-resistant)					0.2 µg/mL
C/C(=N\NC(=O)c1ccncc1)c1ccccc1F		MIC	Ethambutol-resistant					0.2 µg/mL
COc1ccccc1NC(=O)OCCN1CCCCC1		MIC	My 331/88					1000 µM
O=C(N/N=C/c1ccccc1F)c1ccncc1		MBC	H37Rv					0.4 µg/mL
Cc1ccc2nc(N=C([S-])[S-])sc2c1.[K+].[K+]		MIC	H37Rv				BACTEC	≥12.5 µg/mL
NC(=O)c1cnccn1		MIC	Isolate 11552 INH-resistant					>300 µg/mL
CC(NNC(=O)c1ccncc1)c1ccc(F)cc1		MIC	Erdman					1.56 µg/mL
CCOC(=O)Nc1cc2c(c(N)n1)N=C(c1ccc(C)c(C)c1)CN2		EC50	H37Rv					<12.5 µg/mL
CN1c2ccccc2SC12C(=O)N(c1ccccc1)C(=O)N2c1ccccc1		MIC bound	H37Rv				BACTEC	>12.8 µg/mL
CN(C)c1ccc(O)c2c1C[C@H]1C[C@H]3[C@H](N(C)C)C(=O)C(C(N)=O)=C(O)[C@@]3(O)C(=O)C1=C2O		Median MIC	H37Rv					4 µg/mL
O=C([C@@H](O)CO)N1CC=C(c2c(F)cc(N3C[C@H](COc4ccon4)OC3=O)cc2F)CC1	T460C Cys154Arg	MIC	AZD5847-resistant 4.6					16 µg/mL
CO[C@H]1/C=C/O[C@@]2(C)Oc3c(C)c(O)c4c(=O)c(c5oc6cc(N7CCN(CC(C)C)CC7)cc(=O)c6nc5c4c3=C2O)NC(=O)/C(C)=C\C=C\[C@H](C)[C@H](O)[C@@H](C)[C@@H](O)[C@@H](C)[C@H](OC(C)=O)[C@@H]1C		MIC	TN987					16 µg/mL
CC(O)C/C=N/NC(=O)C(=O)N/N=C/CC(C)O		MIC bound	H37Rv				BACTEC	>12.5 µg/mL
O=c1[nH]c2c([N+](=O)[O-])cccc2c(O)c1N=Nc1ccc(Cl)c(Cl)c1		MIC	H37Rv				resazurin	<6.25 µg/mL
CCOC(=O)Nc1cc2oc(=O)c(-c3ccccc3)nc2c(N)n1		EC50	H37Rv					>12.5 µg/mL
Cc1cccc(-n2nc([N+](=O)[O-])c(=Nc3ccc(C)cc3C)n2O)c1		MIC	18b				resazurin	8 µg/mL
NNC(=O)c1ccncc1		MIC	S-5M (susceptible)					0.025 µg/mL
COC(=O)c1nc2[nH]n(-c3ccccc3)c(=O)c2c2c1CCCCCCCCCC2		MIC	H37Rv				BACTEC	≥12.5 µg/mL
O=C(O)c1cc2ccc3c(c2oc1=O)CN(c1ccc(Cl)cc1)CO3		MIC	18b				resazurin	4 µg/mL
NC(=O)NC(=O)C1CCC(=O)N1S(=O)(=O)c1ccc(Cl)cc1		MIC bound	H37Rv				BACTEC	>12.5 µg/mL
CCCCCCCCCN1C(=O)CC(SCCNC(=O)C(CC)CCCC)C1=O		MIC	H37Rv					≤20 µg/mL
CO[C@H]1/C=C/O[C@@]2(C)Oc3c(C)c(O)c4c(O)c(c(/C=N/N5CCN(C/C=C/c6ccccc6)CC5)c(O)c4c3C2=O)NC(=O)/C(C)=C\C=C\[C@H](C)[C@H](O)[C@@H](C)[C@@H](O)[C@@H](C)[C@H](OC(C)=O)[C@@H]1C		MBC	3147 (rifampin-sensitive)					0.05 µg/mL
C1CN1P1(N2CC2)=NP(N2CC2)(N2CC2)=NP(N2CC2)(N2CC2)=N1		inhibition	H37Rv		128 µg/mL		BACTEC	97%
CC[C@H]1OC(=O)[C@H](C)[C@@H](O[C@H]2C[C@@](C)(OC)[C@@H](O)[C@H](C)O2)[C@H](C)[C@@H](O[C@@H]2O[C@H](C)C[C@H](N(C)C)[C@H]2O)[C@](C)(OC)C[C@@H](C)C(=O)[C@H](C)[C@@H](O)[C@]1(C)O		MIC	MDR-3948 (MDR)					>8 µg/mL
CCCCCCCCCN1C(=O)CC(SCCNC(=O)C2CCCCC2)C1=O		MIC	Clinical isolate (isoniazid-resistant)					≤20 µg/mL
CO[C@H]1/C=C/O[C@@]2(C)Oc3c(C)c(O)c4c(O)c(c5c(c4c3C2=O)NC2(CCN(CC(C)C)CC2)N=5)=NC(=O)/C(C)=C\C=C\[C@H](C)[C@H](O)[C@@H](C)[C@@H](O)[C@@H](C)[C@H](OC(C)=O)[C@@H]1C		MIC	Strain 73 74 (D516V)					0.25 µg/mL
O=C(N/N=C/c1cccc(C(F)(F)F)c1)c1ccncc1		EC90	Erdman	inside macrophages		Macrophages	colony count	0.047 µg/mL
Cc1cccc(N=Nc2c(O)c3cccc([N+](=O)[O-])c3[nH]c2=O)c1C		inhibition	H37Rv		6.25 µg/mL		resazurin	48%
NCC[C@H](O)C(=O)N[C@@H]1C[C@H](N)[C@@H](O[C@H]2O[C@H](CN)[C@@H](O)[C@H](O)[C@H]2O)[C@H](O)[C@H]1O[C@H]1O[C@H](CO)[C@@H](O)[C@H](N)[C@H]1O		MIC	MDR21				broth dilution / resazurin	1 µg/mL
NC[C@H]1O[C@H](O[C@H]2[C@H](O)[C@@H](O[C@H]3O[C@H](CO)[C@@H](O)[C@H](N)[C@H]3O)[C@H](N)C[C@@H]2N)[C@H](N)C[C@@H]1O		Median MIC	H37Rv					8 µg/mL
CCOC(=O)Nc1cc(NC/C(=C\O)c2ccc(OC)c(OC)c2OC)c([N+](=O)[O-])c(N)n1		EC50	H37Rv					>12.5 µg/mL
CO[C@@]12[C@H](COC(N)=O)C3=C(C(=O)C(C)=C(N)C3=O)N1C[C@H]1[C@@H]2N1C(=O)C1N2C(=O)[C@@H](NC(=O)Cc3ccccc3)[C@H]2SC1(C)C		MIC	EMB-R					0.2 µg/mL
CCCCCCCCNC1CC(=O)N(CCCCCCCC)C1=O		MIC	Clinical isolate (isoniazid-resistant)					≤20 µg/mL
C[C@@H]1CN(c2c(F)c(N)c3c(=O)c(C(=O)O)cn(C4CC4)c3c2F)C[C@H](C)N1		Mean MIC	H37Rv					0.25 µg/mL
CC(=O)c1ccc(N=Nc2c(O)c3ccccc3n(C)c2=O)cc1		inhibition	H37Rv		6.25 µg/mL		resazurin	20%
O=C(N/N=C/c1cccc(F)c1)c1ccncc1		MBC	Rifampicin-resistant					0.0125 µg/mL
NNC(=O)c1ccncc1	T460C Cys154Arg	MIC	linezolid resistant 8.3					0.06 µg/mL
CCOc1ccc(-c2oc(/C=N/NS(=O)(=O)c3ccc(C)cc3)c([N+](=O)[O-])c2-c2ccc(OCC)cc2)cc1		inhibition	H37Rv		12.5 µg/mL		BACTEC	-6%
O=c1[nH]c2c(Cl)ccc(Cl)c2c(O)c1N=Nc1cccc(Cl)c1		MIC	H37Rv				resazurin	>6.25 µg/mL
CC(=O)O[C@H]1C[C@@]2(C)[C@@H](C[C@@H](O)[C@H]3[C@@]4(C)CC[C@@H](O)[C@@H](C)[C@@H]4CC[C@@]32C)/C1=C(\CCC=C(C)C)C(=O)O		Median MIC	H37Rv					12 µg/mL
CO[C@H]1/C=C/O[C@@]2(C)Oc3c(C)c(O)c4c(O)c(c(/C=N/N5CCN(C)CC5)c(O)c4c3C2=O)NC(=O)/C(C)=C\C=C\[C@H](C)[C@H](O)[C@@H](C)[C@@H](O)[C@@H](C)[C@H](OC(C)=O)[C@@H]1C		MIC	PR819					≤0.02 µg/mL
CC(=O)NC[C@H]1CN(c2ccc(N3CCOCC3)c(F)c2)C(=O)O1		MIC	Strain 32					0.5 µg/mL
CCCCN1C(=O)C=CC1=O		MIC	Clinical isolate (isoniazid-resistant)					≤20 µg/mL
CC(=O)NC[C@H]1CN(c2ccc(N3CCOCC3)c(F)c2)C(=O)O1	G2270T	MIC	AZD5847-resistant 8.10					8 µg/mL
CCOC(=O)Nc1cc(N(C)CC(=O)c2ccc(O)cc2)c([N+](=O)[O-])c(N)n1		EC50	H37Rv					>12.5 µg/mL
O=C1c2ccccc2-c2nc3ccccc3n21		MIC	Clinical isolate				resazurin	4 µg/mL
O=C(NNCc1cccc(C(F)(F)F)c1)c1ccncc1		EC50	Erdman	inside macrophages		Macrophages	colony count	<0.005 µg/mL
COc1ccc(/C=N/NC(=O)c2ccc(OCc3nc4ccccc4[nH]3)cc2)cc1		MIC bound	H37Rv				BACTEC	>12.5 µg/mL
CCOC(=O)Nc1cc(NC(c2ccccc2)c2ccccc2)c([N+](=O)[O-])c(Cl)n1		EC50	H37Rv					>12.5 µg/mL
O=C1C(c2ccccc2)C2C=CC(C2)N1O		MIC bound	H37Rv				BACTEC	>12.5 µg/mL
CO[C@H]1/C=C/O[C@@]2(C)Oc3c(C)c(O)c4c(O)c(c5c(c4c3C2=O)NC2(CCN(CC(C)C)CC2)N=5)=NC(=O)/C(C)=C\C=C\[C@H](C)[C@H](O)[C@@H](C)[C@@H](O)[C@@H](C)[C@H](OC(C)=O)[C@@H]1C		Mean MIC	H37Ra					≤0.003 µg/mL
COc1ccc2c(c1OC)C1=C(C2=O)c2cc3c(cc2CCN1)OCO3		MIC bound	H37Rv				BACTEC	>12.5 µg/mL
CCCCCOc1ccccc1NC(=O)OCCN1CCOCC1		MIC	My 331/88					62.5 µM
COc1cc(C/C=C/c2ccccc2)c(OC)cc1O		MIC	H37Rv				BACTEC	≥12.5 µg/mL
CCCOc1cccc(NC(=O)OCCN2CCCCC2)c1		MIC	My 331/88					250 µM
CCCn1c(-c2nnc(C(C)C)o2)cc2ccccc21		MIC	Clinical isolate				resazurin	16 µg/mL
Cc1ccc(S(=O)(=O)OCC2OC(c3ccccc3)OC3C(CO)OC(c4ccccc4)OC23)cc1		MIC bound	H37Rv				BACTEC	>12.5 µg/mL
C/C(=N\NC(=O)c1ccncc1)c1ccc(F)cc1		MIC	H37Rv (ethambutol-resistant)					2 µg/mL
Cc1nc(Nc2ccccc2)sc1C(=O)CC(=O)C(=O)NC1C2CC3CC(C2)CC1C3		MIC bound	H37Rv				BACTEC	>6.25 µg/mL
CCOc1ccccc1NC(=O)OCCN1CCCCC1		MIC	My 331/88					1000 µM
COC1=CC(=O)C(C2CC(=O)c3c(O)cc(O)cc3O2)=CC1=O		MIC bound	H37Rv				BACTEC	>12.5 µg/mL
NNC(=O)c1ccncc1		MIC	9120					≥0.2 µg/mL
CC(C)(C)C1=CC(=CC=C2C=CN(CCO)C=C2)C=C(C(C)(C)C)C1=O		inhibition	H37Rv		12.5 µg/mL		BACTEC	64%
CO[C@H]1/C=C/O[C@@]2(C)Oc3c(C)c(O)c4c(O)c(c(/C=N/N5CCN(C)CC5)c(O)c4c3C2=O)NC(=O)/C(C)=C\C=C\[C@H](C)[C@H](O)[C@@H](C)[C@@H](O)[C@@H](C)[C@H](OC(C)=O)[C@@H]1C		MIC	9120					≥2 µg/mL
COc1cc(OC)c(OC)cc1/C=N/N=C(\N)NO		inhibition	H37Rv		6.25 µg/mL		resazurin	-10%
O=C(NNCc1ccccc1F)c1ccncc1		MIC	H37Rv (isoniazid-resistant)					>32 µg/mL
CC(C)=CC1C(C(=O)NNC(=O)C2C(C=C(C)C)C2(C)C)C1(C)C		MIC bound	H37Rv				resazurin	>6.25 µg/mL
CCCOC(=O)C1=C(C)OC23OC(N)=C(C#N)C12C(=O)c1ccccc13		MIC	18b				resazurin	8 µg/mL

The last 8 rows once more:

COC1=CC(=O)C(C2CC(=O)c3c(O)cc(O)cc3O2)=CC1=O ; endpoint: MIC bound ; strain or isolate: H37Rv ; read by: BACTEC ; result: >12.5 µg/mL
NNC(=O)c1ccncc1 ; endpoint: MIC ; strain or isolate: 9120 ; result: ≥0.2 µg/mL
CC(C)(C)C1=CC(=CC=C2C=CN(CCO)C=C2)C=C(C(C)(C)C)C1=O ; endpoint: inhibition ; strain or isolate: H37Rv ; dose: 12.5 µg/mL ; read by: BACTEC ; result: 64%
CO[C@H]1/C=C/O[C@@]2(C)Oc3c(C)c(O)c4c(O)c(c(/C=N/N5CCN(C)CC5)c(O)c4c3C2=O)NC(=O)/C(C)=C\C=C\[C@H](C)[C@H](O)[C@@H](C)[C@@H](O)[C@@H](C)[C@H](OC(C)=O)[C@@H]1C ; endpoint: MIC ; strain or isolate: 9120 ; result: ≥2 µg/mL
COc1cc(OC)c(OC)cc1/C=N/N=C(\N)NO ; endpoint: inhibition ; strain or isolate: H37Rv ; dose: 6.25 µg/mL ; read by: resazurin ; result: -10%
O=C(NNCc1ccccc1F)c1ccncc1 ; endpoint: MIC ; strain or isolate: H37Rv (isoniazid-resistant) ; result: >32 µg/mL
CC(C)=CC1C(C(=O)NNC(=O)C2C(C=C(C)C)C2(C)C)C1(C)C ; endpoint: MIC bound ; strain or isolate: H37Rv ; read by: resazurin ; result: >6.25 µg/mL
CCCOC(=O)C1=C(C)OC23OC(N)=C(C#N)C12C(=O)c1ccccc13 ; endpoint: MIC ; strain or isolate: 18b ; read by: resazurin ; result: 8 µg/mL

MIC bound: limit read from a one-dose screen. Percent inhibition refers to the dose given; in toxicity tests it is the harm to the cells. Conditions beyond the fields shown may differ between rows. ECn: concentration that inhibits the pathogen or its effect by n%.